{"source": "patent US7097987", "about": "(Novartis, dated 2006)", "binders": {"B1": {"name": "protein containing the mouse EC2 loop of CD81 (other)", "chain": "FVNKDQIAKDVKQFYDQALQQAVMDDDANNAKAVVKTFHETLNCCGSNALTTLTTTILRNTLCPSGGNILTPLLQQDCHQKIDELFSGK", "notes": "not shown: fusion partner or tag of the mouse EC2 construct is not described"}}, "target": "T1, recombinant HCV E2 envelope protein produced in CHO cells (E2-CHO) (hepatitis C virus, UniProt P26664 384-715, limits assumed)", "T1 construct": "also called CHO-E2; recombinant E2", "assay": "western blot with E2", "data": [{"binder": "B1", "values": [{"measurement": "binding result", "value": "no binding"}]}]}
